The target of test [1] is antibody 10-1074. The test can be described thus: neutralization IC50; higher = virus less sensitive to the antibody. Here is the method:
(§1)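 Pseudovirus bearing the Env chain mixed with antibody, from 50 µg/ml in fivefold dilutions, on TZM-bl reporter cells, in duplicate.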

For test [2], the target named is antibody 3BNC117. The test is described as above. Here is the method:
as §1

For test [3], the target named is antibody 10-1074. Briefly: neutralization IC80; higher = virus less sensitive to the antibody. On the procedure:
as §1

The target in test [4] is antibody 3BNC117. The test is described as above. Here is the method: as §1

The list shows a part of the results. Env chains of viruses from a treatment-interruption trial, translated from the printed DNA. IC50 / IC80 of two broadly neutralizing antibodies; lower = more sensitive virus; >50 µg/ml means not reached and <0.001 µg/ml is below the lowest dose. No active / inactive call.

Here are results for 6 molecules from the supplement of paper PMC12637763.

B1: HIV-1 Env, rebound clone, placebo arm (protein)
chain: MRAKGTRKNCQHLWKWGTMLLGMLMICSAAGNLWVTVYYGVPVWKAANTTLFCASDAKAYDTEVHNVWATHACVPTDPNPQEVPLENVTENFNMWKNNMAEQMHEDIISLWDQSLKPCVKLTPLCVTLNCTDYTKNATNQNNTSGNETVGKEIEMKNCSFNITTDMRDKFQKEYALFYKDDIVSIDNNVSYRLISCNTSVLTQACPKISFEPIPIHYCAPAGFAILKCNDKKFNGTGPCKNVSTVQCTHGIRPVVSTQLLLNGSLAEGGIVIRSENITNNAKTIIVQLNETVEINCTRPNNNTRKSIHIGPGRAFYATGDIIGDIRQAHCNISGTKWNNTLKKIVGQLRAQFGTQFKNKTITFNHSSGGDPEIVMHMFNCGGEFFYCNTTQLFNSTWPANGSMAENSTNNGTITLPCRIKQIVNMWQEVGKAMYAPPIKGQIKCTSNITGLILTRDGGTETNTTTEIFRPGGGNMMDNWRSELYKYKVVKIEPLGVAPTKAKRRVVQREKRAVTFGALFLGFLGAAGSTMGAASMTLTVQARLLLSGIVQQQNNLLRAIEAQQHMLQLTVWGIKQLQARVLAVERYLKDQQLLGIWGCSGKLICTTAVPWNASWSNKTQDEIWGNMTWMQWEKEISNYTGLIYNLIEKSQTQQEQNEQELLALDQWASLWNWFDISKWLWYIKIFIMIVGGLIGLRIVFTVLNIVNRVRQGYSPLSFQTLLPNPRGPDRPGGIEEEGGERDRDSSSRLADGFLAIFWVDLRSLFLFSYHHLRDLLLIAARIVELLGRRGWELLKYWWNLLRYWSQELKNSAISLLNATAIAVAEGTDRVIEVLQRIWRGILHIPTRIRQGLERLLL
Turning to B1, the “neutralization IC50” value in the test with antibody 10-1074 [1] came to 0.005 µg/mL; with antibody 3BNC117 [2], 0.013 µg/mL. Moreover, the “neutralization IC80” value worked out at 0.026 µg/mL with antibody 10-1074 [3] and 0.039 µg/mL in the test with antibody 3BNC117 [4].

B2: HIV-1 Env, rebound clone, placebo arm (protein)
chain: MRAKGTRKNCQHLWKWGTMLLGMLMICSAAGNLWVTVYYGVPVWKAANTTLFCASDAKAYDTEVHNVWATHACVPTDPNPQEVPLENVTENFNMWKNNMAEQMHEDIISLWDQSLKPCVKLTPLCVTLNCTDYTKNATNQNNTSGNETVGKEIEMKNCSFNITTDMRDKFQKEYALFYKDDIVSIDNNVSYRLISCNTSVLTQACPKISFEPIPIHYCAPAGFAILKCNDKKFNGTGPCKNVSTVQCTHGIRPVVSTQLLLNGSLAEGGIVIRSENITNNAKTIIVQLNETVEINCTRPNNNTRKSIHIGPGRAFYATGDIIGDIRQAHCNISGTKWNNTLKKIVGQLRAQFGTQFKNKTITFNHSSGGDPEIVMHMFNCGGEFFYCNTTQLFNSTWPANGSMAENSTNNGTITLPCRIKQIVNMWQEVGKAMYAPPIKGQIKCTSNITGLILTRDGGTETNTTTEIFRPGGGNMMDNWRSELYKYKVVKIEPLGVAPTKAKRRVVQREKRAVTFGALFLGFLGAAGSTMGAASMTLTVQARLLLSGIVQQQNNLLRAIEAQQHMLQLTVWGIKQLQARVLAVERYLKDQQLLGIWGCSGKLICTTAVPWNASWSNKTQDEIWGNMTWMQWEKEISNYTGLIYNLIEKSQTQQEQNEQELLALDQWASLWNWFDISKWLWYIKIFIMIVGGLIGLRIVFTVLNIVNRVRQGYSPLSFQTLLPNPRGPDRPGGIEEEGGERDRDSSSRLADGLLAIFWVDLRSLFLFSYHHLRDLLLIAARIVELLGRRGWELLKYWWNLLRYWSQELKNSAISLLNATAIAVAEGTDRVIEVLQRIWRGILHIPTRIRQGLERLLL
For the molecule B2, the “neutralization IC50” value stood at 0.006 µg/mL with antibody 10-1074 [1] and 0.014 µg/mL in the test with antibody 3BNC117 [2]. For the same molecule, the entries for the “neutralization IC80” value with antibody 10-1074 [3] and with antibody 3BNC117 [4] were 0.026 µg/mL and 0.035 µg/mL, respectively.

B3: HIV-1 Env, rebound clone, placebo arm (protein)
chain: MRAKGTRKNCQHLWKWGTMLLGMLMICSAAGNLWVTVYYGVPVWKAANTTLFCASDAKAYDTEVHNVWATHACVPTDPNPQEVPLENVTENFNMWKNNMAEQMHEDIISLWDQSLKPCVKLTPLCVTLNCTDYTKNATNQNNTSGNETVGKEIEMKNCSFNITTDMRDKFQKEYALFYKDDIVSIDNNVSYRLISCNTSVLTQACPKISFEPIPIHYCAPAGFAILKCNDKKFNGTGPCKNVSTVQCTHGIRPVVSTQLLLNGSLAEGGIVIRSENITNNAKTIIVQLNETVEINCTRPNNNTRKSIHIGPGRAFYATGDIIGDIRQAHCNISGTKWNNTLKKIVGQLRAQFGTQFKNKTITFNHSSGGDPEIVMHMFNCGGEFFYCNTTQLFNSTWPANGSMAENSTNNGTITLPCRIKQIVNMWQEVGKAMYAPPIKGQIKCTSNITGLILTRDGGTETNTTTEIFRPGGGNMMDNWRSELYKYKVVKIEPLGVAPTKAKRRVVQREKRAVTFGALFLGFLGAAGSTMGAASMTLTVQARLLLSGIVQQQNNLLRAIEAQQHMLQLTVWGIKQLQARVLAVERYLKDQQLLGIWGCSGKLICTTAVPWNASWSNKTQDEIWGNMTWMQWEKEISNYTGLIYNLIEKSQTQQEQNEQELLALDQWASLWNWFDISKWLWYIKIFIMIVGGLIGLRIVFTVLNIVNRVRQGYSPLSFQTLLPNPRGPDRPGGIEEEGGERDRDSSSRLADRFLAIFWVDLRSLFLFSYHHLRDLLLIAARIVELLGRRGWELLKYWWNLLRYWSQELKNSAISLLNATAIAVAEGTDRVIEVLQRIWRGILHIPTRIRQGLERLLL
Consider B3, for which the “neutralization IC50” value in the test with antibody 10-1074 [1] was found to be 0.004 µg/mL; with antibody 3BNC117 [2], 0.01 µg/mL. For the same molecule, the “neutralization IC80” value with antibody 10-1074 [3] was determined as 0.021 µg/mL; with antibody 3BNC117 [4] it was 0.029 µg/mL.

B4: HIV-1 Env, rebound clone, placebo arm (protein)
chain: MRAKGTRKNCQHLWKWGTMLLGMLMICSAAGNLWVTVYYGVPVWKAANTTLFCASDAKAYDTEVHNVWATHACVPTDPNPQEVPLENVTENFNMWKNNMAEQMHEDIISLWDQSLKPCVKLTPLCVTLNCTDYTKNATNQNNTSGNETVGKEIEMKNCSFNITTDMRDKFQKEYALFYKDDIVSIDNNVSYRLISCNTSVLTQACPKISFEPIPIHYCAPAGFAILKCNDKKFNGTGPCKNVSTVQCTHGIRPVVSTQLLLNGSLAEGGIVIRSENITNNAKTIIVQLNETVEINCTRPNNNTRKSIHIGPGRAFYATGDIIGDIRQAHCNISGTKWNNTLKKIVGQLRAQFGTQFKNKTITFNHSSGGDPEIVMHMFNCGGEFFYCNTTQLFNSTWPVNGSMAENSTNNGTITLPCRIKQIVNMWQEVGKAMYAPPIKGQIKCTSNITGLILTRDGGTETNTTTEIFRPGGGNMMDNWRSELYKYKVVKIEPLGVAPTKAKRRVVQREKRAVTFGALFLGFLGAAGSTMGAASMTLTVQARLLLSGIVQQQNNLLRAIEAQQHMLQLTVWGIKQLQARVLAVERYLKDQQLLGIWGCSGKLICTTAVPWNASWSNKTQDEIWGNMTWMQWEKEISNYTGLIYNLIEKSQTQQEQNEQELLALDQWASLWNWFDISKWLWYIKIFIMIVGGLIGLRIVFTVLNIVNRVRQGYSPLSFQTLLPNPRGPDRPGGIEEEGGERDRDSSSRLADGFLAIFWVDLRSLFLFSYHHLRDLLLIAARIVELLGRRGWELLKYWWNLLRYWSQELKNSAISLLNATAIAVAEGTDRVIEVLQRIWRGILHIPTRIRQGLERLLL
Take B4: the “neutralization IC50” value stood at 0.008 µg/mL in the test with antibody 10-1074 [1] and 0.01 µg/mL in the test with antibody 3BNC117 [2]. Also, the figures for the “neutralization IC80” value with antibody 10-1074 [3] and with antibody 3BNC117 [4] were 0.033 µg/mL and 0.032 µg/mL, respectively.

B5: HIV-1 Env, rebound clone, placebo arm (protein)
chain: MRAKGTRKNCQHLWKWGTMLLGMLMICSAAGNLWVTVYYGVPVWKAANTTLFCASDAKAYDTEVHNVWATHACVPTDPNPQEVPLENVTENFNMWKNNMAEQMHEDIISLWDQSLKPCVKLTPLCVTLNCTDYTKNATNQNNTSGNETVGKEIEMKNCSFNITTDMRDKFQKEYALFYKDDIVSIDNNVSYRLISCNTSVLTQACPKISFEPIPIHYCAPAGFAILKCNDKKFNGTGPCKNVSTVQCTHGIRPVVSTQLLLNGSLAEGGIVIRSENITNNAKTIIVQLNETVEINCTRPNNNTRKSIHIGPGRAFYATGDIIGDIRQAHCNISGTKWNNTLKKTVGQLRAQFGTQFKNKTITFNHSSGGDPEIVMHMFNCGGEFFYCNTTQLFNSTWPANGSMAENSTNNGTITLPCRIKQIVNMWQEVGKAMYAPPIKGQIKCTSNITGLILTRDGGTETNTTTEIFRPGGGNMMDNWRSELYKYKVVKIEPLGVAPTKAKRRVVQREKRAVTFGALFLGFLGAAGSTMGAASMTLTVQARLLLSGIVQQQNNLLRAIEAQQHMLQLTVWGIKQLQARVLAVERYLKDQQLLGIWGCSGKLICTTAVPWNASWSNKTQDEIWGNMTWMQWEKEISNYTGLIYNLIEKSQTQQEQNEQELLALDQWASLWNWFDISKWLWYIKIFIMIVGGLIGLRIVFTVLNIVNRVRQGYSPLSFQTLLPNPRGPDRPGGIEEEGGERDRDSSSRLADGFLAIFWVDLRSLFLFSYHHLRDLLLIAARIVELLGRRGWELLKYWWNLLRYWSQELKNSAISLLNATAIAVAEGTDRVIEVLQRIWRGILHIPTRIRQGLERLLL
As to B5, the results for the “neutralization IC50” value with antibody 10-1074 [1] and in the test with antibody 3BNC117 [2] were 0.005 µg/mL and 0.016 µg/mL, respectively. For the same molecule, the “neutralization IC80” value with antibody 10-1074 [3] is 0.026 µg/mL; with antibody 3BNC117 [4], 0.045 µg/mL.

B6: HIV-1 Env, rebound clone, placebo arm (protein)
chain: MRVMGMLRNWQHLEKWGLLFLGLLIICSAKDNLWVTVYYGVPVWKEATTTLFCASDAKGYDKEAHNVWATHACVPTDPNPQEIWLKNVTENFNIWRNDMVEQMHTDIISLWDESLKPCVKITPLCVTLNCTNAKFNSTSANSTQEEPGAVQNCTFNTTTELRDKKQKVYALFYRLDLIPLKENNASNNASNEYILINCNTSIIKQACPKVSWDPIPIHYCAPAGYAILKCRDKKFNGTGPCKNVSTVQCTHGVKPVVSTQLLLNGSLAEEDIVIRSENISDNAKTIIVSLNEPVQINCTRPGNNTRKGIHLGPGQTFYARGDIIGDIRKAHCKINKSQWNKTLAQVSTKLKSLLNITGVVFKPPVGGDLEVTMHSFNCRGEFFYCNTSGLFNFSYSVPTNETITINETITIPCKIKQIINMWQGVGQAMYAPPIAGNITCNSNITGILLIRDGGPNSTNNDTFRPGGGDMRDNWRSELYKYKVVEIEPLGVAPTRARRQVVRRERRAVGIGAVFLGFLGAAGSTMGAASITLTVQARQLLSGIVQQQRNLLQAIEAQQHLLKLTVWGIKQLQARVLAVERYLKDQQLLGIWGCSGKLICTTSVPWNSSWSNRSLDEIWNNMTWIDWEREISNYSQEIYKLIEQSQNQQEKNEQELLALDKWASLWSWFDITNWLWYIKIFIMIVGGLIGLRIVFAVLAIVNRVRKGYSPLSLQTLIPSPRGPDRPDGIEEGGGEQGRDRSVRLVTGFLALVWDDLRNLCLFSYRHLRDFILIAARVVDRGLRRGWEQCLKYLWNLTKYWSQELKNSATSLFNSTAIVVAEGTDRIIEALQAVIRAVLHIPRRIRQGFERALL
Consider B6, for which the figures for the “neutralization IC50” value in the test with antibody 10-1074 [1] and in the test with antibody 3BNC117 [2] were over 50 µg/mL and 0.984 µg/mL, respectively. In addition, the entries for the “neutralization IC80” value with antibody 10-1074 [3] and with antibody 3BNC117 [4] were over 50 µg/mL and 25.2 µg/mL, respectively.
